A mixed list of measured activities; the numbers were collected in NIAID ChemDB.

Shared fields: whole-cell or culture tests; organism: Mycobacterium tuberculosis

Rows are shuffled and stem from different studies.

SMILES	conditions	strain	read by	dose	changes	read-out	result
N[C@@H]1CN(c2c(F)cc3c(=O)c(C(=O)O)cn([C@@H]4C[C@@H]4F)c3c2Cl)CC12CC2		27 strains (levofloxacin-susceptible)				MIC50	0.1 µg/mL
CC(C)(C)NNC(=O)/C(=C/c1ccc([N+](=O)[O-])cc1)NC(=O)c1ccccc1		H37Rv	BACTEC	12.5 µg/mL		inhibition	-7%
O=C(Nc1sc(-c2ccc(OCc3c(Cl)cccc3Cl)cc2)cc1C(=O)O)c1cccc(Cl)c1		H37Rv	resazurin			MIC	6.6 µM
O=C(N/N=C(/CS(=O)(=O)c1ccccc1)c1ccc(Cl)cc1)c1ccc([N+](=O)[O-])o1		RCMB 010126				MIC	15.63 µg/mL
C[C@H]1COc2c(N3C[C@@H](N)C(C)(C)C3)c(F)cc3c(=O)c(C(=O)O)cn1c23		Rifampicin-sensitive (7 strains pooled)				Mean MIC	1.4 µg/mL
O=C1C2=C(Nc3cc(Cl)ccc3N2)OC1c1c[nH]c2ccc(COc3ccccc3)cc12		H37Rv	BACTEC	12.5 µg/mL		inhibition	7%
N/C(=N\NC(=O)c1ccc(Cl)cc1Cl)SCc1cccc(Cl)c1		H37Rv				MIC	>100 µg/mL
C[C@H]1COc2c(N3C[C@@H](N)C4(CC4)C3)c(F)cc3c(=O)c(C(=O)O)cn1c23		Rifampicin-sensitive (7 strains pooled)				Mean MIC	1 µg/mL
O=C(Nc1cc2c(=O)[nH]c3ccccc3c2oc1=O)c1cnccn1		H37Rv	BACTEC	6.25 µg/mL		inhibition	31%
CO[C@H]1/C=C/O[C@@]2(C)Oc3c(C)c(O)c4c(O)c(c(/C=N/N5CCN(C)CC5)c(O)c4c3C2=O)NC(=O)/C(C)=C\C=C\[C@H](C)[C@H](O)[C@@H](C)[C@@H](O)[C@@H](C)[C@H](OC(C)=O)[C@@H]1C		13267				MIC	0.02 µg/mL
Cc1cc(Nc2cccc(Cl)c2)nc(-n2nc(C)cc2C)n1		H37Rv				EC50	24 µM
CC(=N\NC(=O)c1ccc([N+](=O)[O-])o1)/C(Cl)=N/Nc1ccc(F)cc1		RCMB 010126				MIC	31.25 µg/mL
COc1ccc(Nc2nc3ccc(N)cc3nc2C(N)=O)cc1OC		H37Rv				EC50	4.8 µM
COCC(=O)OC1CCn2c1nc1c2C(=O)C(C)=C(NC(C)=O)C1=O		H37Rv	BACTEC	12.5 µg/mL		inhibition	0%
O=C(Nc1sc(-c2ccc(OCc3c(Cl)cccc3Cl)cc2)cc1C(=O)O)c1ccccc1F		H37Rv	resazurin			MIC	48.4 µM
CS/C(N)=N/NC(=O)c1ccc(Cl)cc1Cl		H37Rv				MIC	>100 µg/mL
CCn1c(SCC(=O)N/N=C/c2cc(O)ccc2Br)nnc1-c1ccco1		H37Rv		6.25 µg/mL		inhibition	6%
O=C1NNCc2c1oc1ccccc21		H37Rv	BACTEC	12.5 µg/mL		inhibition	18%
COc1cc(O)c2c(=O)c(OC)c(-c3ccc(O)cc3)oc2c1		H37Rv	BACTEC			EC50	>100 µg/mL
C[C@H]1COc2c(N3CC[C@@H](CNC4CC4)C3)c(F)cc3c(=O)c(C(=O)O)cn1c23		Rifampicin-sensitive (7 strains pooled)				Mean MIC	0.9 µg/mL
O=C(O)c1cc(-c2ccc(OCc3c(Cl)cccc3Cl)cc2)sc1NCc1ccc(Cl)cc1		H37Rv	resazurin			EC50	>128 µM
S=c1oc(-c2cnccn2)nn1CNc1cscn1		H37Rv				MIC	0.1 µg/mL
CO[C@H]1/C=C/O[C@@]2(C)Oc3c(C)c(O)c4c(O)c(c5[nH]c(N(Cc6ccccc6)c6ccccc6)nc5c4c3C2=O)NC(=O)/C(C)=C\C=C\[C@H](C)[C@H](O)[C@@H](C)[C@@H](O)[C@@H](C)[C@H](OC(C)=O)[C@@H]1C		H37Rv				MIC	0.04 µg/mL
C[C@H]1COc2c(N3CCN(C)CC3)c(F)cc3c(=O)c(C(=O)O)cn1c23		22 strains (rifampin- isoniazid-resistant)				MIC50	3.13 µg/mL
Cc1coc(NS(=O)(=O)c2ccc(N=Nc3c(N)n(C)c(=O)n(C)c3=O)cc2)c1C		H37Rv	BACTEC			MIC bound	>12.5 µg/mL
O=C(O)c1ccc(NCn2nc(-c3cnccn3)oc2=S)cc1		H37Rv				MIC	0.1 µg/mL
CCOC(=O)C1=NN(c2ccccc2)C(=O)C1N=Nc1ccc(S(=O)(=O)Nc2cc(C)nc(C)n2)cc1		H37Rv	BACTEC			MIC bound	>12.8 µg/mL
CS/C(N)=N/NC(=O)c1ccccc1		H37Rv				MIC	>100 µg/mL
CC(C)N=c1cc2n(-c3ccc(Cl)cc3)c3ccccc3nc-2cc1Nc1ccc(Cl)cc1		7357/1998				MIC	0.13 µM
COc1c(N2CCNC(C)C2)c(F)cc2c(=O)c(C(=O)O)cn(C3CC3)c12		Rifampicin-sensitive (7 strains pooled)				Mean MIC	0.2 µg/mL
CNC(=S)c1ccc(SC(C)C)cc1		H37Rv				MIC	>355 µM
COc1ccc(C(=O)Nc2sc(-c3ccc(OCc4c(Cl)cccc4Cl)cc3)cc2C(=O)O)cc1		H37Rv	resazurin			MIC	>64 µM
CCn1c(SCC(=O)N/N=C/c2ccc([N+](=O)[O-])cc2)nnc1-c1ccco1		H37Rv				EC50	>6.25 µg/mL
c1ccc2c(c1)Sc1ccccc1N2CC1CN2CCC1CC2		H37Rv	BACTEC			MIC bound	>12.5 µg/mL
CCCN(CCC)c1nc2c([nH]1)c1c(O)c3c(O)c(C)c4c(c32)C(=O)[C@@](C)(O/C=C/[C@H](OC)[C@@H](C)[C@@H](OC(C)=O)[C@H](C)[C@H](O)[C@H](C)[C@@H](O)[C@@H](C)/C=C/C=C(/C)C(=O)N1)O4		H37Rv				MIC	0.02 µg/mL
CCn1c(SCC(=O)NN)nnc1-c1ccco1		H37Rv		6.25 µg/mL		inhibition	0%
CCC(C)Sc1ccc(/C=C/C(N)=S)cc1		H37Rv				MIC	80 µM
CCCCN(C)c1nc2c([nH]1)c1c(O)c3c(O)c(C)c4c(c32)C(=O)[C@@](C)(O/C=C/[C@H](OC)[C@@H](C)[C@@H](OC(C)=O)[C@H](C)[C@H](O)[C@H](C)[C@@H](O)[C@@H](C)/C=C/C=C(/C)C(=O)N1)O4		H37Rv				MIC	0.005 µg/mL
CC(=O)Nc1ccc(/C=N/NC(N)=S)cc1F		H37Rv	resazurin		Ciprofloxacin-resistant	MIC90	<0.1 µg/mL
CCCSc1ccc(/C=C/C(N)=S)cc1		H37Rv				MIC	84 µM
CN[C@@H]1[C@H](O[C@H]2[C@H](O[C@H]3[C@H](O)[C@@H](O)[C@H](N=C(N)N)[C@@H](O)[C@@H]3N=C(N)N)O[C@@H](C)[C@]2(O)C=O)O[C@@H](CO)[C@H](O)[C@H]1O		H37Rv	resazurin			MIC	6 µM
Cc1ccc(-c2cc3cnccc3[nH]c2=O)cc1		H37Rv				EC50	17 µM
COC(=O)Nc1sc(-c2ccc(OCc3c(Cl)cccc3Cl)cc2)cc1C(=O)O		H37Rv	resazurin			EC50	21.31 µM
COCCNc1nc2c(c(=O)n(Cc3ccc(Cl)c(Cl)c3)c(=O)n2C)n1C		H37Rv				EC50	17 µM
CCCSc1ccc(C(N)=S)cc1		H37Rv				MIC	284 µM
COc1cc(C(=O)N/N=C(\N)SC)cc(OC)c1OC		H37Rv				MIC	>100 µg/mL
CO[C@H]1/C=C/O[C@@]2(C)Oc3c(C)c(O)c4c(O)c(c(/C=N/N5CCN(C)CC5)c(O)c4c3C2=O)NC(=O)/C(C)=C\C=C\[C@H](C)[C@H](O)[C@@H](C)[C@@H](O)[C@@H](C)[C@H](OC(C)=O)[C@@H]1C		Rifampicin-resistant (5 strains pooled)				Mean MIC	>100 µg/mL
NC(=O)c1cnccn1		RCMB 010126				MIC	3.21 µg/mL
C/C(=N\NC(=O)c1ccccc1S(N)(=O)=O)C(CN1CCCCC1)C(C1=C(O)C2C=CC=CC2OC1=O)c1ccccc1.Cl		H37Rv	BACTEC	12.5 µg/mL		inhibition	13%
CN[C@@H]1[C@@H](O)[C@@H](O[C@@H]2[C@@H](O)[C@H](O[C@H]3O[C@H](CN)CC[C@H]3N)[C@@H](N)C[C@H]2N)OC[C@]1(C)O		Praha 131				MIC	>8.37 µM
CC(N=c1cc2n(-c3ccc(Cl)cc3)c3ccccc3nc-2cc1Nc1ccc(Cl)cc1)c1ccccc1		PZA-R				MIC	0.2 µg/mL
C=CCSc1ccc(C(=S)NCC)cc1		H37Rv				MIC	252 µM
O=C(O)c1cc(-c2ccc(OCc3c(Cl)cccc3Cl)cc2)sc1NCc1ccccc1		H37Rv	resazurin			EC50	58.2 µM
C=CCS/C(N)=N/NC(=O)c1ccc(Cl)cc1Cl		H37Rv				MIC	>100 µg/mL
COc1ccc2c(c1OC)CN1CCc3cc4c(cc3[C@@H]1C2)OCO4		H37Rv	BACTEC			MIC	≥128 µg/mL
CO[C@H]1/C=C/O[C@@]2(C)Oc3c(C)c(O)c4c(O)c(c5[nH]c(N6CCCC6)nc5c4c3C2=O)NC(=O)/C(C)=C\C=C\[C@H](C)[C@H](O)[C@@H](C)[C@@H](O)[C@@H](C)[C@H](OC(C)=O)[C@@H]1C		H37Rv				MIC	0.01 µg/mL
COc1ccc(/C=C2/SC(=O)N(C)C2=O)cc1OC		H37Rv	BACTEC	12.5 µg/mL		inhibition	0%
c1ccc(Nc2nnc(-c3cnccn3)s2)cc1		H37Rv				MIC	0.1 µg/mL
Cc1cc(N=Nc2ccc(Sc3ccc(N=Nc4ccc(O)c(C(=O)[O-])c4)cc3)cc2)c(N)c(N=Nc2ccc(C(=O)[O-])cc2)c1N.[Na+].[Na+]		H37Rv	BACTEC	12.5 µg/mL		inhibition	0%
CCNC(=S)c1ccc(SCC)cc1		H37Rv				MIC	>355 µM
CN[C@H]1CCN(c2c(F)cc3c(=O)c(C(=O)O)cn4c3c2OC[C@@H]4C)C1		Rifampicin-sensitive (7 strains pooled)				Mean MIC	3.2 µg/mL
CCCSc1ccc(C(=S)NCC)cc1		H37Rv				MIC	334 µM
O=c1[nH]nc(-c2ccccc2)n1-c1ccncc1		H37Rv	resazurin	6.25 µg/mL		inhibition	1%
CO[C@H]1/C=C/O[C@@]2(C)Oc3c(C)c(O)c4c(O)c(c5[nH]c(N(C)C)nc5c4c3C2=O)NC(=O)/C(C)=C\C=C\[C@H](C)[C@H](O)[C@@H](C)[C@@H](O)[C@@H](C)[C@H](OC(C)=O)[C@@H]1C		H37Rv				MIC	0.0025 µg/mL
CC1=Nc2ccccc2S/C1=C(/C)NNC(=O)C(N)=O		H37Rv	BACTEC			MIC bound	>12.5 µg/mL
O=C(Nc1sc(-c2ccc(OCc3c(Cl)cccc3Cl)cc2)cc1C(=O)O)c1cccs1		H37Rv	resazurin			EC50	70.03 µM
CCn1c(SCC(=O)N/N=C/c2cccc([N+](=O)[O-])c2)nnc1-c1ccco1		H37Rv				MIC	>6.25 µg/mL
O=C(NNC(=S)Nc1ccccc1)c1ccncc1		H37Rv	resazurin			MIC bound	>6.25 µg/mL
CCn1cc(C(=O)O)c(=O)c2cc(F)c(N3CCN(C)CC3)cc21	pH 6.8					EC50	<10 µg/mL
CCOC(=O)c1cc(C(O)C(O)C(O)CO)oc1C		H37Rv	BACTEC			MIC bound	>12.5 µg/mL
Cc1ccc(Cn2nnc(-c3cc([N+](=O)[O-])cc([N+](=O)[O-])c3)n2)cc1	14 d	7357/1998				MIC	0.125 µM
Cc1ccc(S(=O)(=O)C/C(=N/NC(=O)c2ccc([N+](=O)[O-])o2)c2ccc([N+](=O)[O-])cc2)cc1		RCMB 010126				MIC	125 µg/mL
NNC(=O)c1ccncc1		27 strains (levofloxacin-susceptible)				MIC90	6.25 µg/mL
CC(C)(C)n1nc(C2CC2)c(Br)c1NC(=O)c1ccc(Cl)cc1		H37Rv	BACTEC			MIC bound	>12.5 µg/mL
C=CCSc1ccc(C(N)=S)cc1		H37Rv				MIC	334 µM
Cc1ccc(S(=O)(=O)NC(=O)OC23COCN2COC3)cc1		H37Rv	BACTEC			MIC bound	>12.5 µg/mL
CCC(C)N(c1nc2c([nH]1)c1c(O)c3c(O)c(C)c4c(c32)C(=O)[C@@](C)(O/C=C/[C@H](OC)[C@@H](C)[C@@H](OC(C)=O)[C@H](C)[C@H](O)[C@H](C)[C@@H](O)[C@@H](C)/C=C/C=C(/C)C(=O)N1)O4)C(C)CC		H37Rv				MIC	0.01 µg/mL
Cc1ccc(NC(=O)C(=NNC(N)=O)c2c(O)c3ccccc3[nH]c2=O)cc1		H37Rv	BACTEC	12.5 µg/mL		inhibition	0%
O=C(Nc1sc(-c2ccc(OCc3c(Cl)cccc3Cl)cc2)cc1C(=O)O)c1ccccn1		H37Rv	resazurin			EC50	>128 µM

MIC bound: limit read from a one-dose screen. Blank or dashed fields: not listed here. A number after MIC or MFC names an inhibition level or a share of isolates. ECn: concentration that inhibits the pathogen or its effect by n%. Inhibition is in % at the dose shown (toxicity tests: loss of growth or viability).